Compound potency records, mixed from different reports. Data source: NIAID ChemDB in PubChem.

A number after MIC or MFC names an inhibition level or a share of isolates. ECn: concentration that inhibits the pathogen or its effect by n%. Rows are shuffled and stem from different studies. An empty or dashed field is not shown. Percent inhibition refers to the dose given; in toxicity tests it is the harm to the cells. MIC bound comes from a single tested concentration. ICn: concentration for n% inhibition.

| smiles | measure | tested at | species | kind | read by | protein | strain or isolate | cells | value |
|---|---|---|---|---|---|---|---|---|---|
| Cc1cc(C)c(S(=O)(=O)c2c(C)cc(C)cc2C)c(C)c1 | MIC | - | Mycobacterium tuberculosis | culture | - | - | H37Rv | - | >100 µg/mL |
| Fc1ccc(N2CCCCC2)c(NC(=S)c2ccncc2)c1 | inhibition | 10 µM | - | host protein | kinase activity | PAK6 | - | - | -7% |
| O=C(Nc1nnc(NCCN2CCCC2)s1)c1c(Cl)cccc1Cl | IC50 | - | Human cytomegalovirus | target | - | Polymerase | - | - | >25 µM |
| O=C(O)C(=O)NCc1cnccn1 | MIC bound | - | Mycobacterium tuberculosis | culture | BACTEC | - | H37Rv | - | >12.5 µg/mL |
| O=C(Nc1nnc(NCCc2cccs2)s1)c1ccc(F)cc1F | IC50 | - | Human cytomegalovirus | target | - | Polymerase | - | - | >25 µM |
| CCOc1ccccc1-c1nc2c(s1)C(=O)c1ccccc1C2=O | MIC bound | - | Mycobacterium tuberculosis | culture | BACTEC | - | H37Rv | - | ≤12.5 µg/mL |
| O=C1OC(=O)c2c(I)cccc21 | MIC | - | Mycobacterium tuberculosis | culture | - | - | H37Rv | - | 25 µg/mL |
| CCN(CC)CCCN(C)Cc1c(-c2ccccc2)oc(-c2ccccc2)c1Cl | MIC | - | Mycobacterium tuberculosis | culture | - | - | H37Rv | VERO | 1.56 µg/mL |
| CC(Br)C(=O)Nc1ccc(S(=O)(=O)NCCO)cc1 | MIC | - | Mycobacterium tuberculosis | culture | - | - | H37Rv | - | 100 µg/mL |
| CC(C)c1cc(C(C)C)c(C(=O)Nc2nnc(NCc3ccncc3)s2)c(C(C)C)c1 | IC50 | - | Human cytomegalovirus | target | - | Polymerase | - | - | >25 µM |
| CCOC(=O)Nc1cc(Cl)c2nnn(C(=O)OCC)c2n1 | MIC bound | - | Mycobacterium tuberculosis | culture | BACTEC | - | H37Rv | - | >12.5 µg/mL |
| c1ccc2c(-c3cncc(N4CCN(c5ccncc5)CC4)n3)cccc2c1 | inhibition | 1 µM | Cytomegalovirus | target | - | UL97 kinase | - | - | <50% |
| Nc1nccc(Oc2ccc([As](=O)(O)O)cc2)n1 | MIC | - | Mycobacterium tuberculosis | culture | - | - | H37Rv | - | >100 µg/mL |
| CC(C)c1cc(C(C)C)c(C(=O)Nc2nnc(NCCc3c[nH]c4ccccc34)s2)c(C(C)C)c1 | IC50 | - | Human cytomegalovirus | target | - | Polymerase | - | - | >25 µM |
| Cc1cccc2c1NC(=O)C2=O | MIC | - | Mycobacterium tuberculosis | culture | - | - | H37Rv | - | 50 µg/mL |
| C[C@H](Cc1ccc(O)c(O)c1)[C@@H](C)Cc1ccc(O)c(O)c1 | MIC50 | - | Candida colliculosa | culture | broth dilution | - | CCC 122-2000 | - | 125 µg/mL |
| COc1ccc2cccnc2c1-n1c(C)ccc1C | MIC | - | Mycobacterium tuberculosis | culture | - | - | H37Rv | - | 50 µg/mL |
| Cc1cc(NCCN(C(C)C)C(C)C)nc(Nc2nc3cc(Cl)c(Cl)cc3[nH]2)n1 | MIC bound | - | Mycobacterium tuberculosis | culture | BACTEC | - | H37Rv | - | >6.25 µg/mL |
| Cc1cc(O)c(C=O)c(O)c1 | MIC | - | Mycobacterium tuberculosis | culture | - | - | H37Rv | - | 100 µg/mL |
| CCCCCCOC(=O)c1[nH]c(=O)n(CCCCCC)c(=O)c1N | inhibition | 6.25 µg/mL | Mycobacterium tuberculosis | culture | resazurin | - | H37Rv | - | 36% |
| CSc1cc(N)c2ncccc2c1[N+](=O)[O-] | MIC | - | Mycobacterium tuberculosis | culture | - | - | H37Rv | - | >100 µg/mL |
| Nc1ccnn2c(-c3ccccc3)nnc12 | inhibition | 12.5 µg/mL | Mycobacterium tuberculosis | culture | BACTEC | - | H37Rv | - | 3% |
| O=S([O-])c1ccc(Cl)cc1.[Na+] | MIC | - | Mycobacterium tuberculosis | culture | - | - | H37Rv | - | 100 µg/mL |
| O=C(NNC(=O)c1ccc(Cl)cc1)c1ccc(Cl)cc1 | inhibition | 12.5 µg/mL | Mycobacterium tuberculosis | culture | BACTEC | - | H37Rv | - | 2% |
| O=C(Nc1nnc(NC2CCCc3ccccc32)s1)c1c(Cl)cccc1Cl | IC50 | - | Human cytomegalovirus | target | - | Polymerase | - | - | <25 µM |
| CCO/N=C/c1ccc(OCCC2CCN(c3ccc(C)nn3)CC2)cc1 | EC50 | - | Rhinovirus | culture | neutral red | - | 5146 (ICAM-1 receptor group 24) | KB | 0.016 µM |
| Cc1nnc2sc(-c3cccc(Cl)c3)nn2c1=O | MIC bound | - | Mycobacterium tuberculosis | culture | resazurin | - | H37Rv | - | >6.25 µg/mL |
| c1ccc(N2CCN(c3cncc(-c4cccc5ccccc45)n3)CC2)cc1 | IC50 | - | Cytomegalovirus | target | - | UL97 kinase | - | - | <100 µM |
| OC[C@@H](O)[C@@H](O)[C@H](O)[C@H](O)/C=N/Nc1ccccc1 | inhibition | 6.25 µg/mL | Mycobacterium tuberculosis | culture | resazurin | - | H37Rv | - | 33% |
| COc1ccc(N2CCN(c3cncc(-c4ccc(CO)cc4)n3)CC2)cc1OC | IC50 | - | Cytomegalovirus | target | - | UL97 kinase | - | - | <10 µM |
| Cc1cc(C)c(CC(=O)O)c(C)c1 | MIC | - | Mycobacterium tuberculosis | culture | - | - | H37Rv | - | >100 µg/mL |
| O=C(Nc1nnc(NC2CCCCCC2)s1)c1ccc(S(=O)(=O)F)cc1 | IC50 | - | Human cytomegalovirus | target | - | Polymerase | - | - | >25 µM |
| Nc1ccc(N2CCOCC2)nc1 | MIC | - | Mycobacterium tuberculosis | culture | - | - | H37Rv | - | >100 µg/mL |
| Clc1ccc(N2CCN(c3cncc(-c4ccoc4)n3)CC2)cc1 | IC50 | - | Cytomegalovirus | target | - | UL97 kinase | - | - | <100 µM |
| COc1ccc(-c2coc3c4c(c(CC=C(C)C)c(OC)c3c2=O)OC(C)(C)C=C4)cc1OC | inhibition | 12.5 µg/mL | Mycobacterium tuberculosis | culture | BACTEC | - | H37Rv | - | 23% |
| COc1cccc(-c2cncc(N3CCN(c4cccc(Cl)c4)CC3)n2)c1OC | inhibition | 10 µM | Cytomegalovirus | target | - | UL97 kinase | - | - | >15% |
| N#CC(N=Nc1cccc2ccccc12)C(N)=O | inhibition | 12.5 µg/mL | Mycobacterium tuberculosis | culture | BACTEC | - | H37Rv | - | -5% |
| O=C(O)/C=C/c1ccccc1 | MIC | - | Mycobacterium tuberculosis | culture | - | - | H37Rv | - | 50 µg/mL |
| CC1(C)OCC2OC3(CO)OC(C)(C)OC3C2O1 | MIC bound | - | Mycobacterium tuberculosis | culture | BACTEC | - | H37Rv | - | >12.5 µg/mL |
| COC(=O)c1cccc(-c2ccccc2N)c1 | MIC | - | Mycobacterium tuberculosis | culture | - | - | H37Rv | - | >100 µg/mL |
| CCCCCCCCCCCCCCCC1=NN(c2ccccc2)C(=O)C1NC(=O)O | MIC | - | Mycobacterium tuberculosis | culture | BACTEC | - | H37Rv | - | ≥12.8 µg/mL |
| CC(=O)CC(=O)Nc1ccc(C)cn1 | MIC | - | Mycobacterium tuberculosis | culture | - | - | H37Rv | - | 100 µg/mL |
| Cc1ccc(/C=N/NC(=O)c2ccncc2)cc1 | MIC | - | Mycobacterium tuberculosis | culture | resazurin | - | H37Rv | - | 0.1 µg/mL |
| N#Cc1ccc(N=C=O)cc1 | MIC | - | Mycobacterium tuberculosis | culture | - | - | H37Rv | - | >100 µg/mL |
| CC1=CC(=O)C(/C=C(\C)[N+](=O)[O-])=CC1=O | MIC | - | Mycobacterium tuberculosis | culture | BACTEC | - | H37Rv | - | 64 µg/mL |
| C#CC[C@@H](C(=O)N[C@H](/C=C/C(=O)OCC)C[C@@H]1CCNC1=O)n1cccc(NC(=O)c2cc(C)on2)c1=O | inhibition | 0.232 µM | Rhinovirus | culture | cytopathic effect / XTT | - | Serotype 78 | H1-HELA | 90% |
| CCC(C)(C)c1ccc(Oc2cccc(C(=O)N(C)c3ccc(O)cc3)c2)cc1 | MIC | - | Mycobacterium tuberculosis | culture | - | - | H37Rv | - | 100 µg/mL |
| COc1cccc(N2CCN(c3cncc(-c4ccc(F)cc4)n3)CC2)c1 | inhibition | 1 µM | Cytomegalovirus | target | - | UL97 kinase | - | - | <50% |

The first 6 rows once more:

Cc1cc(C)c(S(=O)(=O)c2c(C)cc(C)cc2C)c(C)c1 ; measure: MIC ; species: Mycobacterium tuberculosis ; kind: culture ; strain or isolate: H37Rv ; value: >100 µg/mL
Fc1ccc(N2CCCCC2)c(NC(=S)c2ccncc2)c1 ; measure: inhibition ; tested at: 10 µM ; kind: host protein ; read by: kinase activity ; protein: PAK6 ; value: -7%
O=C(Nc1nnc(NCCN2CCCC2)s1)c1c(Cl)cccc1Cl ; measure: IC50 ; species: Human cytomegalovirus ; kind: target ; protein: Polymerase ; value: >25 µM
O=C(O)C(=O)NCc1cnccn1 ; measure: MIC bound ; species: Mycobacterium tuberculosis ; kind: culture ; read by: BACTEC ; strain or isolate: H37Rv ; value: >12.5 µg/mL
O=C(Nc1nnc(NCCc2cccs2)s1)c1ccc(F)cc1F ; measure: IC50 ; species: Human cytomegalovirus ; kind: target ; protein: Polymerase ; value: >25 µM
CCOc1ccccc1-c1nc2c(s1)C(=O)c1ccccc1C2=O ; measure: MIC bound ; species: Mycobacterium tuberculosis ; kind: culture ; read by: BACTEC ; strain or isolate: H37Rv ; value: ≤12.5 µg/mL